Pooled drug test results. Numbers come from NIAID ChemDB, via PubChem.

Common to all: host cell toxicity; cell line: PBL; endpoint: CC50

Lines come from different laboratories, so protocols vary. CCn: concentration that lowers growth or viability of the cells by n%.

SMILES,value
CC(C)C[C@H](NC(=O)[C@H](Cc1ccccc1)NC(=O)CNC(=O)CNC(=O)[C@@H](N)Cc1ccc(O)cc1)C(=O)NC[C@H]1OC(O)[C@H](O)[C@@H](O)[C@@H]1O,>140 µM
CC(C)=CCN1Cc2cccc3[nH]c(=S)n(c23)C[C@@H]1C,800 µM
COC(=O)[C@H](C)NP(=O)(OC[C@@H]1C=C[C@H](n2cnc3c(N)ncnc32)O1)Oc1ccccc1,5.2 µM
CC12CCC3C(CCC4CCCCC43C)C1CC(F)C2=O,>100 µM
C1CNCCNCCCN[C@H]([C@@H]2CNCCCNCCNCCCN2)CNC1,>724 µM
CCc1cc(NCc2nc3c(C)ccc(C)c3o2)c(=O)[nH]c1C,>60 µM
C[C@H](Cn1cnc2c(N)nc(N)nc21)OCP(=O)(O)O,>300 µM
O=c1c2ccccc2n2nnc3ccc(NCCCN4CCN(CCCNc5ccc6nnn7c8ccccc8c(=O)c5c67)CC4)c1c32,>1 µM
CCN(CC)CCCC(C)Nc1ccnc2cc(Cl)ccc12,60 µM
CC(C)C[C@H](NC(=O)[C@H](Cc1ccccc1)NC(=O)CNC(=O)CNC(=O)[C@@H](N)Cc1ccc(O)cc1)C(=O)O[C@@H]1O[C@H](CO)[C@@H](O)[C@H](O)[C@H]1O,>140 µM
CCOCn1c(Sc2cc(C)cc(C)c2)c(CC)c(=O)[nH]c1=O,56 µM
Cc1c(N)nc([C@H](CC(N)=O)NC[C@H](N)C(N)=O)nc1C(=O)N[C@H](C(=O)N[C@H](C)[C@@H](O)[C@H](C)C(=O)N[C@H](C(=O)NCCc1nc(-c2nc(C(=O)NCCC[S+](C)C)cs2)cs1)[C@@H](C)O)C(O[C@@H]1O[C@@H](CO)[C@@H](O)[C@H](O)[C@@H]1O[C@H]1O[C@H](CO)[C@@H](O)[C@H](OC(N)=O)[C@@H]1O)c1cnc[nH]1,>300 µM
C#Cc1c(C(N)=O)ncn1[C@@H]1O[C@H](CO)[C@@H](O)[C@H]1O,1.35 µM
CC(=O)N(O)CCCCCNC(=O)CCC(=O)N(O)CCCCCNC(=O)CCC(=O)N(O)CCCCCN,<100 µM
Nc1ncnc2c1ncn2[C@H]1CC[C@@H](CO)O1,24 µM
Nc1ccn([C@H]2CC[C@@H](CO)O2)c(=O)n1,292 µM
Nc1ncnc2c1ncn2C[C@@H](CO)OCP(=O)(O)O,50 µM
CCOCn1c(Cc2cc(C)cc(C)c2)c(CC)c(=O)[nH]c1=O,73 µM
CC(C)C[C@H](NC(=O)[C@H](Cc1ccccc1)NC(=O)CNC(=O)CNC(=O)[C@@H](N)Cc1ccc(O)cc1)C(=O)O,>140 µM
COc1ccc2c(c1)N(C(=O)OC(C)C)[C@@H](CSC)C(=S)N2,25 µM
Nc1nc(N)c2ncn(CC(CF)OCP(=O)(O)O)c2n1,>500 µM

For reference, 2 entries again:

{"SMILES": "C[C@H](Cn1cnc2c(N)nc(N)nc21)OCP(=O)(O)O", "value": ">300 µM"}
{"SMILES": "Nc1nc(N)c2ncn(CC(CF)OCP(=O)(O)O)c2n1", "value": ">500 µM"}